Test results taken from patent publication US9273015B2, “s-Triazine compounds, pharmaceutical compositions and methods of using the same” (NEW YORK UNIVERSITY, priority 2010, dated 2016).

Tests used:
A. baumannii = assay: Growth inhibition (broth microdilution), A. baumannii; type: cell-based, Acinetobacter baumannii; settings: ratio of HD50 to MIC50, A. baumannii
Text: (§1) The antimicrobial activity of each peptide can be tested following standard broth microdilution protocols recommended by the National Committee for Clinical Laboratory Standard. Multidrug-resistant Staphylococcus aureus strain (ATCC BAA-44) and Acinetobacter baumannii (ATCC BAA-747) can be used in this study, as well as Ampicillin- and streptomycin-resistant Escherichia coli (D31), obtained from the E. coli Genetic Resource Center (Yale University, New Haven, Conn.). Bacteria can be grown overnight in Tryptic Soy broth at 37° C. Then, cultures are diluted in Mueller-Hinton broth to a final concentration range of 2×10^4 to 2×10^5 CFU/ml. Bacterial inocula are incubated at 37° C. in phosphate-buffered saline (PBS) buffer (pH7.2) with various dilutions of peptide stock. The 18-hour absorbance data are used to calculate the percentage of inhibition for each sample by comparison with the absorbance of cultures without sample. Bacterial growth is measured by turbidity as optical density at 600 nm (OD600), using a Genesys 5 Spectrophotometer (Rochester, N.Y.) or equivalent instrument. All assays can be carried out in triplicate. The concentration of peptide that results in 50% inhibition of growth is recorded as the IC50. In addition the concentration of agents needed can be monitored to reduce the bacterial population by three logs, IC99.9. This is a more rigorous indicator of the amount needed to prevent an infection.
(§2) The antimicrobial activity of each triazine compound was tested by following standard broth microdilution protocols recommended by the National Committee for Clinical Laboratory Standard. All compounds were initially tested against Bacillus subtilis (ATCC 6633; Rockville, Md.). Bacteria were grown in Mueller Hinton Broth (MHB) at 37° C. for overnight. Then, cultures were diluted in MHB to a final concentration of 2×10^4 to 2×10^5 CFU/mL. Bacterial inocula were incubated at 37° C. in PBS buffer (pH 7.2) with varying concentrations of 2-fold dilution of triazine stocks. The 18-hour absorbance data were used to calculate the percent inhibition for each sample by comparing with the absorbance of cultures without triazine compounds. Bacterial growth was measured by turbidity as optical density at 600 nm using a Genesys 5 Spectrophotometer (Rochester, N.Y.).

S. aureus = assay: Growth inhibition (broth microdilution), S. aureus; type: cell-based, Staphylococcus aureus; settings: for HI: ratio of HD50 to MIC50, S. aureus; for S. aureus HI: Table 3, ratio of HD50 to IC50
Text: as §1, §2

B. subtilis = assay: Growth inhibition (broth microdilution), B. subtilis; type: cell-based, Bacillus subtilis; settings: Table 3; ratio of HD50 to IC50
Experimental: as §2

| SMILES | HI (A. baumannii) | HI (S. aureus) | S. aureus HI (S. aureus) | B. subtilis HI (B. subtilis) |
| --- | --- | --- | --- | --- |
| CCCCN(CCCC)CCCNc1nc(NCc2ccccc2)nc(Nc2cccc3ccccc23)n1 [TN2] | 65.7 | 69.5 | – | – |
| NCCCCNc1nc(NCc2ccccc2)nc(Nc2cccc3ccccc23)n1 [TN3] | 17.8 | 18 | – | – |
| CCCCN(CCCC)CCCNc1nc(NCc2ccccc2)nc(NCc2cccc3ccccc23)n1 [TN4] | 0.73 | 3.25 | – | – |
| NCCCCNc1nc(NCc2ccccc2)nc(NCc2cccc3ccccc23)n1 [TN5] | 55.83 | 28.39 | – | – |
| CCCCN(CCCC)CCCNc1nc(NCCc2c[nH]c3ccccc23)nc(NCCc2c[nH]c3ccccc23)n1 [TZ-WK(Bu)2W] | – | – | 50.8 | 91.5 |
| NCCCNc1nc(NCCc2c[nH]c3ccccc23)nc(NCCc2c[nH]c3ccccc23)n1 [TZ-WKW] | – | – | 19.1 | 43.3 |
| N=C(N)NCCNc1nc(NCCc2c[nH]c3ccccc23)nc(NCCc2c[nH]c3ccccc23)n1 [TZ-WRW] | – | – | 13.2 | 15 |
